According to US20260126425A1:

Experiments:
[1] = target: SARS-CoV-2 Spike protein (Spike trimer) (SARS-CoV-2) (UniProt P0DTC2)
[2] = target: SARS-CoV-2 Spike protein (Spike trimer) (SARS-CoV-2) (UniProt P0DTC2); remark: listed apart in the source
[3] = target: SARS-CoV-2 Spike protein (Spike trimer) (SARS-CoV-2) (UniProt P0DTC2); remark: listed apart in the source
[4] = target: SARS-CoV-2 Spike protein (Spike trimer) (SARS-CoV-2) (UniProt P0DTC2); remark: listed apart in the source
[5] = target: SARS-CoV-2 Spike protein (Spike trimer) (SARS-CoV-2) (UniProt P0DTC2); remark: listed apart in the source
[6] = target: SARS-CoV-2 Spike protein (Spike trimer) (SARS-CoV-2) (UniProt P0DTC2); remark: listed apart in the source
[7] = target: SARS-CoV-2 Spike protein (Spike trimer) (SARS-CoV-2) (UniProt P0DTC2); remark: listed apart in the source
[8] = target: SARS-CoV-2 Spike protein (Spike trimer) (SARS-CoV-2) (UniProt P0DTC2); remark: listed apart in the source
[9] = target: SARS-CoV-2 Spike protein (Spike trimer) (SARS-CoV-2) (UniProt P0DTC2); remark: listed apart in the source
[10] = target: SARS-CoV-2 Spike protein (Spike trimer) (SARS-CoV-2) (UniProt P0DTC2); remark: listed apart in the source

In the case of Ty1-modified ClyA nanopore (ClyA-f-Ty1), the Log10(tin (ms)), centre of the Gauss fit, at 2.3 nM Spike [1] is reported as 1.11 Log10(ms), the Log10(tout (ms)), first peak of the Gauss fit, at 2.3 nM Spike [2] is reported as 0.582 Log10(ms) and the Log10(tout (ms)), second peak of the Gauss fit, at 2.3 nM Spike [2] is reported as 4.17 Log10(ms). The Log10(tout (ms)), centre of the Gauss fit, at 115 pM Spike [3] was 0.86 Log10(ms), the Log10(tout (ms)), centre of the Gauss fit, at 230 pM Spike [4] was 0.884 Log10(ms) and the Log10(tout (ms)), centre of the Gauss fit, at 345 pM Spike [5] was 1.07 Log10(ms). For the same substance, the Log10(tout (ms)), centre of the Gauss fit, at 460 pM Spike [6] was 1.59 Log10(ms), the Log10(tin (ms)), centre of the Gauss fit, at 115 pM Spike [7] was 1.23 Log10(ms) and the Log10(tin (ms)), centre of the Gauss fit, at 230 pM Spike [8] was 1.47 Log10(ms). For the same substance, the Log10(tin (ms)), centre of the Gauss fit, at 345 pM Spike [9] was 1.29 Log10(ms) and the Log10(tin (ms)), centre of the Gauss fit, at 460 pM Spike [10] was 1.55 Log10(ms).
